Pooled drug test results. Numbers come from NIAID ChemDB, via PubChem.

Common to all: cytotoxicity tests; cell line: Jurkat cells; measure: CC50

CCn: concentration that lowers growth or viability of the cells by n%. Lines come from different laboratories, so protocols vary. Blank or dashed fields: not listed here.

compound | method | value
C=C(C)[C@@H]1CC[C@]2(C)CC[C@]3(C)[C@H](CC[C@@H]4[C@@]5(C)CC[C@H](OC(C)=O)C(C)(C)[C@@H]5CC[C@]43C)[C@@H]12 | MTT / absorbance | >100 µM
Nc1nc(=O)n([C@@H]2CO[C@H](CO)S2)cc1F | - | >500 µM
Cc1cn([C@H]2C[C@H](N=[N+]=[N-])[C@@H](CO)O2)c(=O)[nH]c1=O | - | >25 µM
CCCCCCCCCCCCCCCC(=O)OCC(CO)(CO)NC(=O)CNC(=O)CCC(=O)OC[C@H]1O[C@@H](n2cc(C)c(=O)[nH]c2=O)C[C@@H]1N=[N+]=[N-] | - | 43 µM
CC(C)=CCOc1c2occc2cc2ccc(=O)oc12 | - | >50 µM
CC1=C(O)C(=O)C=C2C1=CC=C1[C@@]2(C)CC[C@@]2(C)[C@@H]3C[C@](C)(C(=O)O)CC[C@]3(C)CC[C@]12C | luminescence | >100 µM
CC(=O)O[C@H]1CC[C@@]2(C)C(CC[C@@]3(C)C4CC[C@@]5(C)CCC(C)(C)C[C@H]5C4=CCC32)C1(C)C | MTT / absorbance | >100 µM
COc1cc(/C=C/C(=O)N2CCC=CC2=O)cc(OC)c1OC | luminescence | 2.6 µM
Nc1nc(=O)n([C@H]2CO[C@@H](CO)S2)cc1F | - | >500 µM
O=C1C=CC(=O)c2c(O)c(Cl)c(Cl)c(O)c21 | luminescence | 0.4 µM
NC(=O)c1sc2cncc(N3CCCCC3)c2c1N | MTT | 41.4 µM
CC[C@@]1([C@@H]2O[C@@H]([C@H]3O[C@@](O)(CO)[C@H](C)C[C@@H]3C)C[C@@H]2C)CC[C@H]([C@]2(C)CC[C@]3(C[C@H](O)[C@@H](C)[C@@H]([C@@H](C)[C@@H](OC)[C@H](C)C(=O)O)O3)O2)O1 | luminescence | 0.1 µM
C=C(C)[C@@H]1CC[C@]2(C)CCC3(C)[C@H](CC[C@@H]4[C@@]5(C)CC[C@H](O)C(C)(C)[C@@H]5CC[C@]43C)[C@@H]12 | MTT / absorbance | >100 µM
CC(=O)c1c(O)c(C)c(O)c(Cc2c(O)c3c(c(C(=O)/C=C/c4ccccc4)c2O)OC(C)(C)C=C3)c1O | ATP / luminescence | 4.149 µM
CC(C)C1=C[C@H](c2ccccc2)CC[C@H]1O | - | >1000 µM
O=C(N[C@@H](Cc1ccccc1)C(=O)CCl)OCc1ccccc1 | luminescence | 1.9 µM
Cc1cc(=O)c2ccc(N=C=S)cc2o1 | MTT | 8.88 µM
Oc1ccc(Cl)c2cccnc12 | luminescence | >100 µM
COc1cc2c(c(OC)c1OC)-c1c(cc3c(c1OC)OCO3)C[C@H](C)[C@H](C)C2 | MTT | >100 µM

The last 2 rows once more:

compound,method,value
Oc1ccc(Cl)c2cccnc12,luminescence,>100 µM
COc1cc2c(c(OC)c1OC)-c1c(cc3c(c1OC)OCO3)C[C@H](C)[C@H](C)C2,MTT,>100 µM